Measured data: PubChem BioAssay AID1224833 (University of Georgia, 2016)
Aim: 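Human genes whose knock-down alters rotavirus replication in monkey cells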 (primary screen). System: monkey MA104 kidney cells. Reagent: siRNA pool against human genes, 50 nM. Duration: 48 h knock-down before infection; read 24 h after infection. Conditions: infection with rotavirus strain RV3 two days after transfection; infectious dose for this stage not given. Measurement: 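z-score of rotavirus antigen signal per well, from a fluorescent immunoassay, relative to non-targeting control wells on the same plate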. Scale: z-score vs non-targeting control: higher = more rotavirus replication than with non-targeting control. Rule for the call: In these data the active calls have z-score vs non-targeting control at about -1 or lower, or at about 1 or higher. Meaning of the calls: active = z-score beyond 1 either way; inactive = z-score within 1 of zero.
The whole screen tested about 12,000 reagents; this is a part drawn at random. Of all reagents, about 5,600 (46%) were called active. 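Active calls cover z-scores past 1 in both directions, so they include lowered as well as raised rotavirus replication.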

With knock-down of TXNRD2 (thioredoxin reductase 2) the results were z-score vs non-targeting control 0.501; inactive.
RBM8A (RNA binding motif protein 8A) scored z-score vs non-targeting control -2.01; active.
After knock-down of TNF (tumor necrosis factor), the record shows z-score vs non-targeting control -1.17; active.
TSNARE1 (t-SNARE domain containing 1) gave z-score vs non-targeting control 1.58; active.
After knock-down of HRK (harakiri, BCL2 interacting protein) the results were z-score vs non-targeting control 0.813; inactive.
After knock-down of DMAC2L (distal membrane arm assembly component 2 like), the screen gave z-score vs non-targeting control 1.66; active.
Silencing of SNX22 (sorting nexin 22) resulted in: z-score vs non-targeting control -0.168; inactive.
Silencing of VIP (vasoactive intestinal peptide) gave: z-score vs non-targeting control -2.79; active.
Depletion of PRRX2 (paired related homeobox 2) gave: z-score vs non-targeting control -0.736; inactive.
Depletion of PRIM2 (DNA primase subunit 2) gave: z-score vs non-targeting control -0.553; inactive.
HCFC1 (host cell factor C1) gave z-score vs non-targeting control -1.64; active.
After knock-down of MED19 (mediator complex subunit 19), the screen gave z-score vs non-targeting control -0.216; inactive.
After knock-down of CRNN (cornulin) the results were z-score vs non-targeting control -1.77; active.
TEX9 (testis expressed 9) showed z-score vs non-targeting control -1.7; active.
SLC4A11 showed z-score vs non-targeting control 3.02; active.
Knock-down of PRSS38 (serine protease 38) gave: z-score vs non-targeting control 2.34; active.
With knock-down of ADCY4 (adenylate cyclase 4), the record shows z-score vs non-targeting control -0.774; inactive.
After knock-down of ATG13 (autophagy related 13), the screen gave z-score vs non-targeting control -0.711; inactive.
NSMCE2 (NSE2 SUMO ligase component of SMC5/6 complex) scored z-score vs non-targeting control -0.89; inactive.
NOP56 (NOP56 ribonucleoprotein) showed z-score vs non-targeting control -0.618; inactive.
TMEM131L (transmembrane 131 like) scored z-score vs non-targeting control -0.686; inactive.
Knock-down of BATF3 (basic leucine zipper ATF-like transcription factor 3) resulted in: z-score vs non-targeting control 1.38; active.
For TUBA3D (tubulin alpha 3d), the values are z-score vs non-targeting control -0.272; inactive.
After knock-down of SPICE1 (spindle and centriole associated protein 1) the results were z-score vs non-targeting control -2.08; active.
Against ZNF582 (zinc finger protein 582), the entry reads z-score vs non-targeting control -0.932; inactive.
For BMP3 (bone morphogenetic protein 3) the deposit lists z-score vs non-targeting control -1.47; active.
ANTXR2 (ANTXR cell adhesion molecule 2) gave z-score vs non-targeting control -0.75; inactive.
RBM47 (RNA binding motif protein 47) showed z-score vs non-targeting control 0.935; inactive.
CT47A11 (cancer/testis antigen family 47 member A11) gave z-score vs non-targeting control 1.06; active.
With knock-down of SDCBP2 (syndecan binding protein 2) the results were z-score vs non-targeting control -0.733; inactive.
Against LMX1A (LIM homeobox transcription factor 1 alpha), the values are z-score vs non-targeting control -1.74; active.
Silencing of ZC3H13 (zinc finger CCCH-type containing 13) resulted in: z-score vs non-targeting control -1.14; active.
ZNF524 (zinc finger protein 524) gave z-score vs non-targeting control -0.887; inactive.
ZNF337 (zinc finger protein 337) showed z-score vs non-targeting control -1.81; active.
With knock-down of EDNRB (endothelin receptor type B), the record shows z-score vs non-targeting control 0.688; inactive.
Against KATNAL2 (katanin catalytic subunit A1 like 2) the deposit lists z-score vs non-targeting control -1.46; active.
Against TEX10 (testis expressed 10) the deposit lists z-score vs non-targeting control -0.422; inactive.
Depletion of SFPQ (splicing factor proline and glutamine rich) resulted in: z-score vs non-targeting control -0.811; inactive.

Part of the list above, reformatted.
target gene	z-score vs non-targeting control	Call
SPICE1 (spindle and centriole associated protein 1)	-2.08	active
ZNF582 (zinc finger protein 582)	-0.932	inactive
BMP3 (bone morphogenetic protein 3)	-1.47	active
ANTXR2 (ANTXR cell adhesion molecule 2)	-0.75	inactive
RBM47 (RNA binding motif protein 47)	0.935	inactive
CT47A11 (cancer/testis antigen family 47 member A11)	1.06	active
SDCBP2 (syndecan binding protein 2)	-0.733	inactive

The results go on.
For NEUROD1 (neuronal differentiation 1) the deposit lists z-score vs non-targeting control -1.35; active.
For ZDHHC2 (zDHHC palmitoyltransferase 2), the entry reads z-score vs non-targeting control 1.2; active.
For GPR155 (G protein-coupled receptor 155) the deposit lists z-score vs non-targeting control 1.14; active.
OR7A10 (olfactory receptor family 7 subfamily A member 10) scored z-score vs non-targeting control -1.31; active.
After knock-down of TNMD (tenomodulin) the results were z-score vs non-targeting control 0.328; inactive.
With knock-down of OR9A4 (olfactory receptor family 9 subfamily A member 4) the results were z-score vs non-targeting control 0.764; inactive.
Knock-down of RWDD3 (RWD domain containing 3) came out at: z-score vs non-targeting control 0.559; inactive.
SMARCD1 (SWI/SNF related BAF chromatin remodeling complex subunit D1) showed z-score vs non-targeting control 1.29; active.
Against AKAP12 (A-kinase anchoring protein 12), the entry reads z-score vs non-targeting control -1.19; active.
With knock-down of NDE1 (nudE neurodevelopment protein 1) the results were z-score vs non-targeting control -0.953; inactive.
Against VPREB1 (V-set pre-B cell surrogate light chain 1) the deposit lists z-score vs non-targeting control -1.88; active.
Depletion of ELANE (elastase, neutrophil expressed) resulted in: z-score vs non-targeting control 1.62; active.
Knock-down of SPACA4 (sperm acrosome associated 4) resulted in: z-score vs non-targeting control -1.34; active.
Knock-down of HYAL4 (hyaluronidase 4) came out at: z-score vs non-targeting control -0.617; inactive.
TNFAIP2 (TNF alpha induced protein 2) gave z-score vs non-targeting control -2.08; active.
For TPD52L2 (TPD52 like 2), the values are z-score vs non-targeting control 0.112; inactive.
OR4D5 (olfactory receptor family 4 subfamily D member 5) showed z-score vs non-targeting control 1.7; active.
For PCOLCE2 (procollagen C-endopeptidase enhancer 2) the deposit lists z-score vs non-targeting control -2.31; active.
TATDN3 (TatD DNase domain containing 3) gave z-score vs non-targeting control -0.769; inactive.
Silencing of PMM1 (phosphomannomutase 1) resulted in: z-score vs non-targeting control -2.47; active.
FMOD (fibromodulin) gave z-score vs non-targeting control 1.2; active.
DDC (dopa decarboxylase) showed z-score vs non-targeting control -1.13; active.
